{"sequences": {"note": "Chains of the proteins cited; added tags and fusions are not shown. Lines headed by an entry give the natural chain unless they say otherwise; changes in a name come on top.", "UniProt P0CAS2": "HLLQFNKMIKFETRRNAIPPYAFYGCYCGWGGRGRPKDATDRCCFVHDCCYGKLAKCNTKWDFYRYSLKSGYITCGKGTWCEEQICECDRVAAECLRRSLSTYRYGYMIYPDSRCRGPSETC"}, "source": "patent US5164196A", "about": "(priority 1990, dated 1992)", "target": "crotoxin B (basic phospholipase A2, subunit B) from Crotalus durissus terrificus venom (Crotalus durissus terrificus, UniProt P0CAS2)", "experiment": "Fluorescence spectroscopy of crotoxin B in the presence of phospholipid vesicles", "details": "read-out: apparent dissociation constant; zwitterionic phospholipid vesicles; change in fluorescence intensity vs phospholipid concentration", "note": "pKd: −log10 of the molar value.", "data": [{"substance": "phosphatidylcholine", "values": [{"measurement": "pKd", "value": "2.70 to 3.00"}]}]}
